Pooled drug test results. Numbers come from NIAID ChemDB, via PubChem.

Shared fields: growth or infection tests; agent: Aspergillus fumigatus; read by: broth dilution; read-out: MIC

Lines come from different laboratories, so protocols vary.

compound,strain,conditions,result
CCCCCCCCCCCC(=O)NC(CCCN)C(=O)NC(CCCN)C(N)=O,ATCC 42203,-,50 µg/mL
Cc1ccc(-n2nc(C)c(C3CC(=O)N(c4ccc(F)cc4)C4=C3C(=O)CCC4)c2Cl)cc1,MTCC 3008,-,500 µg/mL
Cc1ccc2c(c1)nc1c(CN)c(-c3c(-c4ccc(F)cc4)[nH]c4ccccc34)c(CN)c(N)n12,MTCC 3008,-,>1000 µg/mL
C[C@H]1[C@H](O)[C@@H](C)/C=C/C=C/C=C/C=C/C=C/C=C/C=C/[C@H](O[C@@H]2O[C@H](C)[C@@H](O)[C@H](N)[C@@H]2O)C[C@@H]2O[C@](O)(C[C@@H](O)C[C@@H](O)CC[C@H](O)[C@@H](O)C[C@@H](O)CC(=O)O[C@H]1C)C[C@H](O)[C@H]2C(=O)O,7544,-,4 µg/mL
OC(Cn1cncn1)(Cn1cncn1)c1ccc(F)cc1F,ATCC 96918,-,>200 µg/mL
CCCCCOc1ccc(-c2cc(-c3ccc(C(=O)N[C@H]4C[C@@H](O)[C@@H](O)NC(=O)[C@@H]5[C@@H](O)[C@@H](C)CN5C(=O)[C@H]([C@H](O)CC(N)=O)NC(=O)[C@H]([C@H](O)[C@@H](O)c5ccc(O)c(OS(=O)(=O)O)c5)NC(=O)[C@@H]5C[C@@H](O)CN5C(=O)[C@H]([C@@H](C)O)NC4=O)cc3)no2)cc1,FP1305,-,>50 µg/mL
O=C1C=CC[C@H](/C=C/c2ccccc2)O1,-,-,>100 µg/mL
C[C@H]1[C@H](O)[C@@H](C)/C=C/C=C/C=C/C=C/C=C/C=C/C=C/[C@H](O[C@@H]2O[C@H](C)[C@@H](O)[C@H](N)[C@@H]2O)C[C@@H]2O[C@](O)(C[C@@H](O)C[C@@H](O)CC[C@H](O)[C@@H](O)C[C@@H](O)CC(=O)O[C@H]1C)C[C@H](O)[C@H]2C(=O)O,MYA-32626,-,0.25 µg/mL
CCCC[C@@H](C)/C=C(C)/C=C(\C)C(=O)N/C(=C/[C@@](C)(O)/C=C/C=C/C=C/C(=O)NC1=C(O)CCC1=O)C(=O)[C@@H]1CO1,2,-,400 µM
Nc1scc2c1c(=O)oc1ccccc12,-,-,16 µg/mL
O=C1CSC(c2ccc3c(c2)OCO3)N1c1ncc(-c2cc3ccccc3oc2=O)o1,HIC 6094,-,20 µg/mL
CCCCCCCCCCCCCCCC(=O)NC(CCCN)C(=O)NC(CCCN)C(N)=O,ATCC 42203,-,6.25 µg/mL
COc1ccc(-c2[nH]c3ccccc3c2-c2c(CN)c(N)n3c(nc4cc(C)ccc43)c2CN)cc1,MTCC 3008,-,>1000 µg/mL
C[C@@H]1[C@@H](COCC(=O)O)C[C@@H](O[C@H]2[C@H](O)[C@@H](N(Cc3ccccc3)CC(O)C[N+](C)(C)C)[C@H](O[C@H]3[C@H](O)[C@@H](N(Cc4ccccc4)CC(O)C[N+](C)(C)C)[C@H](C)O[C@@H]3COCC(=O)O)O[C@@H]2COCC(=O)O)[C@H](N(Cc2ccccc2)CC(O)C[N+](C)(C)C)[C@H]1O,RCMB 02568,-,41.25 µg/mL
C[C@H]1[C@H](O)[C@@H](C)/C=C/C=C/C=C/C=C/C=C/C=C/C=C/[C@H](O[C@@H]2O[C@H](C)[C@@H](O)[C@H](N)[C@@H]2O)C[C@@H]2O[C@](O)(C[C@@H](O)C[C@@H](O)CC[C@H](O)[C@@H](O)C[C@@H](O)CC(=O)O[C@H]1C)C[C@H](O)[C@H]2C(=O)O,NBRC 33022,48 h,0.5 µg/mL
C[C@@H](c1ncncc1F)[C@](O)(Cn1cncn1)c1ccc(F)cc1F,ATCC 204305,-,1 µg/mL
C[C@@H]1[C@@H](COCC(=O)O)C[C@@H](O[C@H]2[C@H](O)[C@@H](N(Cc3ccc(Br)cc3)CC(O)C[N+](C)(C)C)[C@H](O[C@H]3[C@H](O)[C@@H](N(Cc4ccc(Br)cc4)CC(O)C[N+](C)(C)C)[C@H](C)O[C@@H]3COCC(=O)O)O[C@@H]2COCC(=O)O)[C@H](N(Cc2ccc(Br)cc2)CC(O)C[N+](C)(C)C)[C@H]1O,RCMB 02568,-,20 µg/mL
CCCCCCCCCC(=O)NC(CCCN)C(=O)NC(CCCN)C(=O)NC(CCCN)C(N)=O,ATCC 42203,-,50 µg/mL
CC1CCC2(OC1)OC1CC3C4CCC5C[C@@H](OC6OC(CO)C(OC7OC(CO)C(O)C(OC8CC(OC9OC(CO)C(O)C(O)C9O)C(O)C(CO)O8)C7OC7OC(CO)C(O)C(O)C7O)C(O)C6O)[C@H](O)C[C@]5(C)C4CC[C@]3(C)C1[C@@H]2C,-,-,30 µg/mL
NCc1c(-c2c(-c3ccccc3)[nH]c3ccccc23)c(CN)c2nc3ccccc3n2c1N,MTCC 3008,-,>1000 µg/mL
O=C1CSC(c2ccc([N+](=O)[O-])cc2)N1c1ncc(-c2cc3ccccc3oc2=O)o1,HIC 6094,-,18 µg/mL
C[C@@H]1[C@@H](COCC(=O)O)C[C@@H](O[C@H]2[C@H](O)[C@@H](N(Cc3ccc([N+](=O)[O-])cc3)CC(O)C[N+](C)(C)C)[C@H](O[C@H]3[C@H](O)[C@@H](N(Cc4ccc([N+](=O)[O-])cc4)CC(O)C[N+](C)(C)C)[C@H](C)O[C@@H]3COCC(=O)O)O[C@@H]2COCC(=O)O)[C@H](N(Cc2ccc([N+](=O)[O-])cc2)CC(O)C[N+](C)(C)C)[C@H]1O,RCMB 02568,-,11.25 µg/mL
O=C1CSC(c2c(F)cccc2F)N1c1ncc(-c2cc3ccccc3oc2=O)o1,HIC 6094,-,32 µg/mL
Cc1ccc(-n2nc(C)c(C3CC(=O)N(c4ccc(F)cc4)C4=C3C(=O)CC(C)(C)C4)c2Cl)cc1,MTCC 3008,-,500 µg/mL
CCCCCCCCCCCCCCCCCC(=O)NC(CCCN)C(=O)NC(CCCN)C(=O)NC(CCCN)C(=O)NC(CCCN)C(N)=O,ATCC 42203,-,1.5 µg/mL
CS(=O)(=O)c1ccc(-c2[nH]c3ccccc3c2-c2c(CN)c(N)n3c(nc4ccccc43)c2CN)cc1,MTCC 3008,-,1000 µg/mL
C[C@H]1[C@H](O)[C@@H](C)/C=C/C=C/C=C/C=C/C=C/C=C/C=C/[C@H](O[C@@H]2O[C@H](C)[C@@H](O)[C@H](N)[C@@H]2O)C[C@@H]2O[C@](O)(C[C@@H](O)C[C@@H](O)CC[C@H](O)[C@@H](O)C[C@@H](O)CC(=O)O[C@H]1C)C[C@H](O)[C@H]2C(=O)O,ATCC 46645,-,2 µg/mL
C[C@@H](c1ncncc1F)[C@](O)(Cn1cncn1)c1ccc(F)cc1F,-,-,0.5 µg/mL
c1ccc(-c2ccc(C(c3ccccc3)n3ccnc3)cc2)cc1,ATCC 9142,-,150 µg/mL
CCC1/C=C/C=C/C=C/C=C/C(OC2OC(C)C(O)C(N)C2O)CC2OC(O)(CC(O)CC(O)C(O)/C=C/C(=O)OC1C)CC(O)C2C(=O)O,CGMCC 3.3552,-,6.25 µg/mL
C[C@@H]1[C@H](O)[C@@H](C)/C=C/C=C/C=C/C=C/C=C/C=C/C=C/[C@H](O[C@@H]2O[C@H](C)[C@@H](O)[C@H](N)[C@@H]2O)C[C@@H]2O[C@](O)(C[C@@H](O)C[C@@H](O)[C@H](O)CC[C@@H](O)C[C@@H](O)CC(=O)O[C@H]1C)C[C@H](O)[C@H]2C(=O)O,IP 2279.94,-,0.5 µg/mL
CCCCCCCCCCCC[n+]1cccc2ccccc21,231,48 h,0.125 µg/mL
CCCCCCCC(=O)NC(CCCN)C(N)=O,ATCC 42203,-,>100 µg/mL
O=C1CSC(c2ccco2)N1c1ncc(-c2cc3ccccc3oc2=O)o1,HIC 6094,-,25 µg/mL
C[n+]1c2cccc(O)c2cc2sc3ccccc3c21,ATCC 90906,-,>20 µg/mL
CC(C)S(=O)(=O)N1CCN(c2cnn(-c3cc(F)cc(F)c3)c(=O)c2OC2CCC(F)C2)CC1,ND158,-,0.25 µg/mL
CNC1(NC)C=CC(C2SCC(=O)N2c2ncc(-c3cc4ccccc4oc3=O)o2)=CC1,HIC 6094,-,20 µg/mL
COc1ccc(N2C(=O)CC(c3c(C)nn(-c4ccc(C)cc4)c3Cl)C3=C2CC(C)(C)CC3=O)cc1,MTCC 3008,-,1000 µg/mL
CCCCCCCCCCCCCC(=O)NC(CCCN)C(=O)NC(CCCN)C(N)=O,ATCC 42203,-,12.5 µg/mL
CN1CCN(c2n[nH]c(N3C(=O)CS[C@@H]3c3ccc4c(c3)OCO4)n2)CC1,165.86,-,50 µg/mL
COc1ccc(N2C(=O)CC(c3c(C)nn(-c4ccccc4)c3Cl)C3=C2CC(C)(C)CC3=O)cc1,MTCC 3008,-,1000 µg/mL
NCc1c(-c2c(-c3ccc([N+](=O)[O-])cc3)[nH]c3ccccc23)c(CN)c2nc3ccccc3n2c1N,MTCC 3008,-,1000 µg/mL
C/C(=N\NC(=O)c1ccncc1)c1cc2ccccc2oc1=O,ATCC 25691,-,25 µg/mL
N#Cc1ccc(-c2[nH]c3ccccc3c2-c2c(CN)c(N)n3c(nc4ccccc43)c2CN)cc1,MTCC 3008,-,1000 µg/mL
CCCCCCCCCC(=O)NC(CCCN)C(=O)NC(CCCN)C(=O)NC(CCCN)C(=O)NC(CCCN)C(N)=O,ATCC 42203,-,50 µg/mL

For reference, 5 entries again:

compound,strain,conditions,result
CCCCCCCCCCCC[n+]1cccc2ccccc21,231,48 h,0.125 µg/mL
CC(C)S(=O)(=O)N1CCN(c2cnn(-c3cc(F)cc(F)c3)c(=O)c2OC2CCC(F)C2)CC1,ND158,-,0.25 µg/mL
C[C@@H]1[C@@H](COCC(=O)O)C[C@@H](O[C@H]2[C@H](O)[C@@H](N(Cc3ccccc3)CC(O)C[N+](C)(C)C)[C@H](O[C@H]3[C@H](O)[C@@H](N(Cc4ccccc4)CC(O)C[N+](C)(C)C)[C@H](C)O[C@@H]3COCC(=O)O)O[C@@H]2COCC(=O)O)[C@H](N(Cc2ccccc2)CC(O)C[N+](C)(C)C)[C@H]1O,RCMB 02568,-,41.25 µg/mL
CCCCCCCCCCCCCCCCCC(=O)NC(CCCN)C(=O)NC(CCCN)C(=O)NC(CCCN)C(=O)NC(CCCN)C(N)=O,ATCC 42203,-,1.5 µg/mL
C[C@@H]1[C@@H](COCC(=O)O)C[C@@H](O[C@H]2[C@H](O)[C@@H](N(Cc3ccc(Br)cc3)CC(O)C[N+](C)(C)C)[C@H](O[C@H]3[C@H](O)[C@@H](N(Cc4ccc(Br)cc4)CC(O)C[N+](C)(C)C)[C@H](C)O[C@@H]3COCC(=O)O)O[C@@H]2COCC(=O)O)[C@H](N(Cc2ccc(Br)cc2)CC(O)C[N+](C)(C)C)[C@H]1O,RCMB 02568,-,20 µg/mL

An empty or dashed field is not shown.